According to PubChem BioAssay AID686977 (Southern Research Specialized Biocontainment Screening …, 2013):
This is one part of the list. Potency and affinity values are given separately. Results filed as inconclusive are left out. Activity calls are given as the source filed them. How the calls were made is not given here.

experiment: Vibrio cholerae quorum sensing activators, luminescence (AID 686977); conditions: V. cholerae quorum sensing reporter, 6 h, dose 50, dose unit µM, stronger effect = higher value

SMILES	luminescence
O=C(NCC1(N2CCOCC2)CCCCC1)c1cc2ccccc2o1	inactive: 0
